Results of unrelated studies side by side (data: NIAID ChemDB).

All rows: whole-cell or culture tests; organism: Hepatitis C virus; read by: replicon; read-out: EC50

Conditions beyond the fields shown may differ between rows. Blank or dashed fields: not listed here. ECn: concentration that inhibits the pathogen or its effect by n%.

smiles | cells | conditions | strain | result
C=C1C(=O)O[C@@H]2/C=C(\C)CC/C=C(\C)CC[C@@H]12 | Huh7 |  |  | 2.69 µM
CCC[C@H](NC(=O)[C@@H]1C2CCCC2CN1C(=O)[C@@H](NC(=O)[C@@H](NC(=O)c1cnccn1)C(C)CC)C(C)(C)C)C(=O)C(=O)NC1CC1 | Huh7 |  |  | 1.2 µM
N#Cc1cn([C@@H]2O[C@H](CO)[C@@H](O)[C@H]2O)c2ncnc(NC3CCCC3)c12 |  |  |  | 7 µM
C=C[C@@H]1C[C@]1(NC(=O)[C@@H]1C[C@@H](Oc2cc(-c3ccccc3)nc3cc(OC)ccc23)CN1C(=O)[C@@H](NC(=O)Oc1ccccc1)C(C)(C)C)C(=O)NS(=O)(=O)C1CC1 | Huh7 |  | 1b | <0.05 µM
C[C@@H]1CC[C@H]2[C@@H](C)C(=O)O[C@@H]3OC4(C)CC[C@@H]1[C@]32OO4 | Huh7 |  |  | >10 µM
COc1ccc2c(OC3CC(C(=O)NC4(C(=O)O)CC4)N(C(=O)[C@@H](NC(=O)OC(C)(C)C)C(C)C)C3)cc(-c3ccccc3)nc2c1 | Huh7 |  |  | >10 µM
CCN1CC[C@@](NC(=O)c2ccc3c(C4CCCCC4)c(-c4ccccn4)n(C)c3c2)(C(=O)Nc2ccc(/C=C/C(=O)O)cc2)C1 |  | genotype 1b |  | 0.052 µM
CN(C)C(=O)c1ccc(COc2ccc(-c3nc4cc(C(=O)O)ccc4n3C3CCCCC3)cc2)c(-c2ccc(Cl)cc2)c1 | Huh7 |  |  | 0.37 µM
COc1ccc2c(O[C@@H]3C[C@@H](C(=O)NC4(C(=O)NS(=O)(=O)C5CC5)CC4)N(C(=O)[C@@H](NC(=O)OC(C)(C)C)C(C)(C)C)C3)cc(-c3ccccc3)nc2c1 | Huh7 |  | 1b | <5 µM
O=C(O)/C=C/c1ccc(NC(=O)C2(NC(=O)c3ccc4c(c3)nc(-c3ccoc3)n4C3CCCCC3)CCC2)cc1 | Huh7 |  |  | 1 µM
CNc1ncnc2c1c(/C(N)=N/O)cn2[C@@H]1O[C@H](CO)[C@@H](O)[C@H]1O |  |  |  | 3.7 µM
C[C@H](NP(=O)(N[C@@H](C)C(=O)OC(C)(C)C)OC[C@H]1O[C@@H](n2cnc(C(N)=O)n2)[C@H](O)[C@@H]1O)C(=O)OC(C)(C)C | Huh7 | genotype 1b |  | >100 µM
C[C@@]1(O)[C@H](O)[C@@H](CO)O[C@H]1c1coc2c(N)ncnc12 |  | 24 h |  | 22 µM
C=C[C@@H]1C[C@]1(NC(=O)[C@@H]1C[C@@H](Oc2cc(-c3ccccc3)nc3cc(OC)ccc23)CN1C(=O)[C@@H](NC(=O)Oc1ccc(OC)cc1)C(C)(C)C)C(=O)NS(=O)(=O)C1CC1 | Huh7 |  | 1b | <0.5 µM
C[C@H]1CCC2[C@@H](C)C(=O)N(CCC(=O)N(CC(=O)NCc3ccccc3)c3ccccc3)C3O[C@]4(C)CCC1[C@@]23OO4 | Huh 5-2 |  |  | 6 µM
C=C[C@@H]1C[C@]1(NC(=O)[C@@H]1C[C@@H](c2csc(-c3ccccc3OCC)n2)CN1C(=O)C(NC(=O)OC1CCCC1)C(C)(C)C)C(=O)NS(=O)(=O)C1CC1 | Huh7 cells |  |  | 0.43 µM
C[C@@]1(O)[C@H](O)[C@@H](CO)O[C@H]1C1C=Nc2c(N)ncn[n+]21 | Huh7 |  | GT1b | 1.28 µM
CCC[C@H](NC(=O)[C@@H]1C2CCCC2CN1C(=O)[C@@H](NC(=O)[C@@H](NC(=O)c1cnccn1)C1CCCCC1)C(C)(C)C)C(=O)C(=O)N[C@@H](C)Cc1ccccc1 | Huh7 |  |  | 0.11 µM
CC[C@H](C)[C@H](NC(=O)OC(C)(C)C)C(=O)N1C[C@H](Oc2cc(-c3ccccc3)nc3cc(OC)ccc23)C[C@H]1C(=O)NC1(C(=O)NS(=O)(=O)C2CC2)CC12CCC2 | Huh7 |  | 1b | <5 µM
C[C@H]1CCC2[C@@H](C)C(=O)N(CCC(=O)N(CO)CC(=O)NCc3ccccc3)C3O[C@]4(C)CCC1[C@@]23OO4 | Huh 5-2 |  |  | 8 µM
CCC[C@H](NC(=O)C1CC(Oc2cc(-c3ccccc3)nc3cc(OC)ccc23)CN1C(=O)[C@@H](NC(=O)OC(C)(C)C)C(C)C)C(=O)NS(C)(=O)=O | Huh7 |  |  | >10 µM
C[C@@H]1CC[C@H]2[C@@H](C)C(=O)O[C@@H]3OC4(C)CC[C@@H]1[C@]32OO4 | HuH6 |  |  | 14 µM
CC(C)CN(CC(=O)NC1CCCCC1)C(=O)CCN1C(=O)[C@H](C)C2CC[C@H](C)C3CC[C@]4(C)OO[C@]32C1O4 | Huh 5-2 |  |  | 4 µM
CCCC(NC(=O)[C@@H]1C2CCC(=O)C2CN1C(=O)[C@@H](NC(=O)[C@@H](NC(=O)c1cnccn1)C(C)C)C(C)C)C(=O)C(=O)Nc1ccccc1 | Huh7 |  |  | >25 µM
CCCCN(CC(=O)NCc1ccccc1)C(=O)CCN1C(=O)[C@H](C)C2CC[C@H](C)C3CCC4(C)OO[C@]32C1O4 | Huh 5-2 |  |  | 4 µM
Nc1ncnc2c1ncn2[C@@H]1O[C@H](OCP(=O)(O)O)[C@@H](O)[C@H]1O | Huh7 |  |  | 65 µM
O=C(CN[C@@H](Cc1ccccc1)C(=O)Nc1ccc(C2SC(=Nc3cccc(F)c3)N(Cc3ccco3)C2=O)cc1)c1ccccc1 |  | genotype 1b | genotype 1 | >50 µM
CNc1ncnc2c1c(C(=N)N)cn2[C@@H]1O[C@H](CO)[C@@H](O)[C@H]1O |  |  |  | 0.6 µM
CCCC(NC(=O)[C@@H]1C2CC[C@@H](F)C2CN1C(=O)[C@@H](NC(=O)[C@@H](NC(=O)c1cnccn1)C(C)C)C(C)C)C(=O)C(=O)NC1CC1 | Huh7 |  |  | <25 µM
C[C@H]1CCC2[C@@H](C)C(=O)N(CCC(=O)N(CC(=O)NC3CCCCC3)C(C)(C)C)C3O[C@]4(C)CCC1[C@@]23OO4 | Huh 5-2 |  |  | 6 µM
CN1CC[C@@](NC(=O)c2ccc3c(C4CCCCC4)c(-c4ccccn4)n(C)c3c2)(C(=O)Nc2ccc(/C=C/C(=O)O)cc2)C1 |  | genotype 1b |  | 0.037 µM
CCC[C@H](NC(=O)C1CC(Oc2cc(-c3ccccc3)nc3cc(OC)ccc23)CN1C(=O)[C@@H](NC(=O)OC(C)(C)C)C(C)C)C(=O)NS(=O)(=O)Cc1ccccc1 | Huh7 |  |  | 4.6 µM
NC(=O)c1ncn([C@@H]2O[C@H](CO)[C@@H](O)[C@H]2O)n1 | Ava5 |  |  | >100 µM
CC(C)CCn1c(=O)/c(=C2\Nc3ccc(NS(C)(=O)=O)cc3S(=O)(=O)N2)c(=O)c2cccn21 | HCV Huh-7/C24 |  | 1b | 0.0085 µM
CCCCN(CC(=O)NC)C(=O)CCN1C(=O)[C@H](C)C2CC[C@H](C)C3CCC4(C)OO[C@]32C1O4 | Huh 5-2 |  |  | 2 µM
COc1ccc2c(c1)S(=O)(=O)N/C(=c1\c(=O)c3cccn3n(CCC(C)C)c1=O)N2 | HCV Huh-7/C24 |  | 1b | 17 µM
Cn1c(-c2ccccn2)c(C2CCCCC2)c2ccc(C(=O)N[C@@]3(C(=O)Nc4ccc(/C=C/C(=O)O)cc4)CCNC3)cc21 |  | genotype 1b |  | 0.154 µM
CSc1ncnc2c1c(/C(N)=N/O)cn2[C@@H]1O[C@H](CO)[C@@H](O)[C@H]1O |  |  |  | 1 µM
Cn1c(C(=O)O)cc2cc(NC(=O)C(C)(C)NC(=O)c3ccc4c(C5CCCCC5)c(-c5ccccn5)n(C)c4c3)ccc21 |  | genotype 1b |  | 0.179 µM
CCC[C@]1(CC(=O)O)OCCc2c1[nH]c1c(C)ccc(C#N)c21 |  |  | C316Y | 10.8 µM
N/C(=N\O)c1cn([C@@H]2O[C@H](CO)[C@@H](O)[C@H]2O)c2nc[nH]c(=O)c12 |  |  |  | 33 µM
CCCCCCC(=O)CCCCCC/C=C/CC(O)C(O)C(N)(CO)C(=O)O |  |  |  | 0.0058 µM
C=C1CC(=O)OC1=O | Huh7 |  |  | >10 µM
C[C@H]1CCC2[C@@H](C)C(=O)N(CCC(=O)N(CC(=O)NCc3ccccc3)C(C)(C)C)C3O[C@]4(C)CCC1[C@@]23OO4 | Huh 5-2 |  |  | 3 µM
N#Cc1cn([C@@H]2O[C@H](CO)[C@@H](O)[C@H]2O)c2ncnc(NCCCN3CCOCC3)c12 |  |  |  | 4.5 µM

A second listing of 5 rows from above:

smiles | cells | conditions | strain | result
CCC[C@H](NC(=O)C1CC(Oc2cc(-c3ccccc3)nc3cc(OC)ccc23)CN1C(=O)[C@@H](NC(=O)OC(C)(C)C)C(C)C)C(=O)NS(=O)(=O)Cc1ccccc1 | Huh7 |  |  | 4.6 µM
CCCCN(CC(=O)NCc1ccccc1)C(=O)CCN1C(=O)[C@H](C)C2CC[C@H](C)C3CCC4(C)OO[C@]32C1O4 | Huh 5-2 |  |  | 4 µM
CCCC(NC(=O)[C@@H]1C2CC[C@@H](F)C2CN1C(=O)[C@@H](NC(=O)[C@@H](NC(=O)c1cnccn1)C(C)C)C(C)C)C(=O)C(=O)NC1CC1 | Huh7 |  |  | <25 µM
COc1ccc2c(O[C@@H]3C[C@@H](C(=O)NC4(C(=O)NS(=O)(=O)C5CC5)CC4)N(C(=O)[C@@H](NC(=O)OC(C)(C)C)C(C)(C)C)C3)cc(-c3ccccc3)nc2c1 | Huh7 |  | 1b | <5 µM
N#Cc1cn([C@@H]2O[C@H](CO)[C@@H](O)[C@H]2O)c2ncnc(NCCCN3CCOCC3)c12 |  |  |  | 4.5 µM